Pooled drug test results. Numbers come from NIAID ChemDB, via PubChem.

Common to all: target-level tests; agent: HIV-1; target: Integrase; read-out: IC50

An empty or dashed field is not shown. Rows are shuffled and stem from different studies. ICn: concentration for n% inhibition. a–b is a range or a potency band.

{"smiles": "Cc1ccc2cc(-c3ccccc3)c3ccc(C)nc3c2n1", "read by": "strand transfer", "result": ">100 µM"}
{"smiles": "O=C(O)C(=O)c1c(O)n(-c2ccccc2)c2ccccc12", "read by": "strand transfer", "result": "660 µM"}
{"smiles": "O=C(C1=NS(=O)(=O)c2ccc(Cl)cc2S1)c1ccc(Cl)c(Cl)c1", "read by": "3′ processing", "result": "19 µM"}
{"smiles": "CCOC(=O)/C(O)=C(\\C(=O)OCC)c1ccccc1", "read by": "strand transfer", "result": ">1000 µM"}
{"smiles": "O=C(/C=C(\\O)c1cccc(OCc2ccccc2)c1)C(=O)NC1CCC(NC(=O)C(=O)/C=C(\\O)c2cccc(OCc3ccccc3)c2)CC1", "read by": "strand transfer", "result": "7 µM"}
{"smiles": "CC(=O)Oc1ccc(/C=C/C(=O)Nc2cccc3c(S(=O)(=O)NCCc4cccc([N+](=O)[O-])c4)cccc23)cc1OC(C)=O", "result": ">100 µg/mL"}
{"smiles": "CC(=O)Nc1cn2ccn(Cc3cccc(Cl)c3)c(=O)c2c(O)c1=O", "read by": "ELISA", "result": "0.01–0.1 µM"}
{"smiles": "CC1=C(C#N)c2nc(N)c(C#N)c(C)c2/C1=C/c1ccc(-c2ccc(Cl)c(C(=O)O)c2)o1", "read by": "strand transfer", "result": "4 µM"}
{"smiles": "O=C(/C=C/c1ccc(O)c(O)c1)Nc1cccc2c(S(=O)(=O)NCCc3ccccc3)cccc12", "result": "4.5 µg/mL"}
{"smiles": "CCNc1cn2ccn(Cc3cccc(Cl)c3)c(=O)c2c(O)c1=O", "read by": "ELISA", "result": "0.01–0.1 µM"}
{"smiles": "C=CCOc1ccc(C[C@H](NC(C)=O)C(=O)N[C@@H](CCCCN=C(N)N)C(=O)NC(CC(=O)OC)CC(=O)OC)cc1", "read by": "strand transfer", "result": "35 µM"}
{"smiles": "CC(=O)OC[C@H]1CCC(=O)N1c1cc(F)ccc1CNC(=O)c1nc2n(c(=O)c1O)CCOC2(C)C", "read by": "strand transfer", "result": "0.02–0.1 µM"}
{"smiles": "Cn1c(/C(O)=C/C(=O)C(=O)O)cc2cc3c(cc21)OCO3", "read by": "strand transfer", "result": "2 µM"}
{"smiles": "CC(C)C(=O)C[C@@H](O)[C@@H](C)[C@H]1CC[C@@]2(C)C3=CC(=O)[C@]45O[C@H]4[C@H](O)[C@@H](O)C[C@]5(C)C3=C[C@@H](O)[C@]12C", "result": "26 µg/mL"}
{"smiles": "Cn1cc(C(=O)O)c(=O)c2cc(N)c(N3CCN(c4ccccn4)CC3)cc21", "result": "75 µM"}
{"smiles": "Nc1ccn([C@@H]2O[C@H](COP(=O)(O)O)[C@@H](OP(=O)(O)OC[C@H]3OC[C@@H](n4cnc5c(N)ncnc54)[C@@H]3O)[C@H]2O)c(=O)n1", "read by": "3′ processing", "result": ">300 µM"}
{"smiles": "COc1ccc(/C=C2\\C(=O)N(c3ccc(S(=O)(=O)O)cc3)NC2C(F)(F)F)cc1OCc1ccc(F)cc1", "read by": "3′ processing", "result": ">100 µM"}
{"smiles": "CC(=O)Oc1ccc(/C=C/C(=O)Nc2cccc3c(S(=O)(=O)NCCc4ccccc4C)cccc23)cc1OC(C)=O", "result": ">100 µg/mL"}
{"smiles": "Cc1cn2c(=O)c(O)c(-c3ncc(Cc4ccc(Cl)cc4)s3)nc2s1", "mutations": "E92Q/N155H", "read by": "strand transfer", "result": "1–10 µM"}
{"smiles": "CN1CCn2c(nc(C(=O)NCc3ccc(F)cc3)c(O)c2=O)C(N(C)S(C)(=O)=O)C1", "read by": "ELISA", "result": "<10 µM"}
{"smiles": "Cc1cnc2c(ccc3c(C)c(C)c(C)nc32)c1C", "read by": "strand transfer", "result": ">100 µM"}
{"smiles": "Cc1cc(Cl)cc2c1S(=O)(=O)N=C(C(=O)c1ccc(Cl)cc1)S2", "mutations": "INTG-C65S", "read by": "3′ processing", "result": "60 µM"}
{"smiles": "O=C(O)c1cc(-c2ccccc2)on1", "read by": "strand transfer", "result": "200 µM"}
{"smiles": "Cc1cn2c(=O)c(O)c(-c3ncc(Cc4ccc(Cl)c(Cl)c4)s3)nc2s1", "mutations": "G140S/Q148H", "read by": "strand transfer", "result": "0.001–1 µM"}
{"smiles": "CC(C)(C)OC(=O)N1CCC(NC(=O)C(=O)/C=C(\\O)c2ccc(F)cc2)CC1", "read by": "strand transfer", "result": "100 µM"}
{"smiles": "CC(=O)Oc1ccc(/C=C/C(=O)Nc2cccc3c(S(=O)(=O)NCCc4cccc(C)c4C)cccc23)cc1OC(C)=O", "result": ">100 µg/mL"}
{"smiles": "C=CCOc1ccc(C[C@H](NC(C)=O)C(=O)N[C@@H](CCCCN=C(N)N)C(=O)NCCCC(=O)OC)cc1", "read by": "strand transfer", "result": "5.5 µM"}
{"smiles": "O=C(NCc1ccc(F)cc1)c1nc2sc(CN3CCOCC3)cn2c(=O)c1O", "read by": "strand transfer", "result": "1–10 µM"}
{"smiles": "CN(C)C(=O)C(=O)N1CCn2c(nc(C(=O)NCc3ccc(F)cc3)c(O)c2=O)C(N(C)C(=O)C(=O)N(C)C)C1", "read by": "ELISA", "result": "<10 µM"}
{"smiles": "O=c1c(-c2ccccn2)cn2ccn(Cc3cccc(Cl)c3)c(=O)c2c1O", "read by": "ELISA", "result": "<0.01 µM"}
{"smiles": "CC(=O)Oc1ccc(/C=C/C(=O)Nc2cccc3c(S(=O)(=O)NCCc4ccc(Cl)cc4)cccc23)cc1OC(C)=O", "result": ">100 µg/mL"}
{"smiles": "N#Cc1cn(Cc2cccc(Cl)c2)c(=O)c2c(O)c(=O)ccn12", "read by": "ELISA", "result": "0.01–0.1 µM"}
{"smiles": "COc1ccc(/C=C2\\C(=O)N(c3cccc(C)c3)NC2C(F)(F)F)cc1OCc1ccc(F)cc1", "read by": "strand transfer", "result": ">100 µM"}
{"smiles": "Cn1c(=O)c(C(=O)NCc2ccc(F)cc2)c(O)c2nc(Cc3ccc(F)cc3)sc21", "read by": "strand transfer", "result": ">151 µM"}
{"smiles": "C=C(CC[C@@H](C)[C@H]1CC[C@@]2(C)C3C[C@H](OS(=O)(=O)[O-])[C@H]4C[C@H](OS(=O)(=O)[O-])[C@@H](OS(=O)(=O)[O-])C[C@]4(C)C3=CC[C@]12C)C(C)(C)C.[Na+].[Na+].[Na+]", "result": "1.8 µg/mL"}
{"smiles": "Cc1cc2c(cc1Cl)SC(C(=O)c1ccc([N+](=O)[O-])cc1)=NS2(=O)=O", "mutations": "INTG-C65S", "read by": "3′ processing", "result": "11 µM"}
{"smiles": "O=C(O[C@@H]1O[C@@H]2COC(=O)c3cc(O)c(O)c(O)c3-c3c(cc(O)c(O)c3O)C(=O)O[C@H]([C@H]1O)[C@@H]2O)c1cc(O)c(O)c(O)c1", "read by": "strand transfer", "result": "0.21 µg/mL"}
{"smiles": "CC(=O)N(Cc1ccccc1)C1CN(C)CCn2c1nc(C(=O)NCc1ccc(F)cc1)c(O)c2=O", "read by": "ELISA", "result": "<10 µM"}
{"smiles": "C=CCOc1ccc(C[C@H](NC(C)=O)C(=O)N[C@@H](CCCCN=C(N)N)C(=O)N[C@H](CC=C)C(=O)OC)cc1", "read by": "strand transfer", "result": "5.2 µM"}
{"smiles": "CC1(C)NCCCn2c1nc(C(=O)NCc1ccc(F)cc1)c(O)c2=O", "read by": "ELISA", "result": "<10 µM"}
{"smiles": "Cc1cc2c(c(O)c1O)C(=O)N(Cc1ccc(F)c(Cl)c1)C2", "read by": "3′ processing", "result": "111 µM"}
{"smiles": "Cc1cc(Cl)cc2c1S(=O)(=O)N=C(C(=O)c1ccc(Cl)c(Cl)c1)S2", "mutations": "INTG-C65S", "read by": "3′ processing", "result": "8 µM"}
{"smiles": "CN(C)CCCNC(=O)c1ccc2nc(-c3ccc4nc(-c5ccc(OCCOCCOCCOc6ccc(-c7nc8ccc(-c9nc%10ccc(C(=O)NCCCN(C)C)cc%10[nH]9)cc8[nH]7)cc6)cc5)[nH]c4c3)[nH]c2c1", "read by": "3′ processing", "result": "14 µM"}
{"smiles": "O=c1c(-c2cc3ccccc3o2)cn2ccn(Cc3cccc(Cl)c3)c(=O)c2c1O", "read by": "ELISA", "result": "0.01–0.1 µM"}
{"smiles": "O=C(/C=C/c1ccc(O)c(O)c1)Nc1cccc2c(S(=O)(=O)Nc3ccccc3)cccc12", "result": "12.2 µg/mL"}
{"smiles": "O=C(Cc1ccncc1)Nc1cn2ccn(Cc3cccc(Cl)c3)c(=O)c2c(O)c1=O", "read by": "ELISA", "result": "0.01–0.1 µM"}
{"smiles": "Cc1cn([C@H]2C[C@H](O)[C@@H](COP(=O)(O)O[C@H]3[C@H](n4cnc5c(N)ncnc54)CO[C@@H]3COP(=O)(O)O)O2)c(=O)nc1N", "read by": "strand transfer", "result": "50 µM"}
{"smiles": "CS(=O)(=O)c1cn2ccn(Cc3cccc(Cl)c3)c(=O)c2c(O)c1=O", "read by": "ELISA", "result": "0.01–0.1 µM"}
{"smiles": "CC(=O)Oc1ccc(/C=C/C(=O)Nc2cccc3c(S(=O)(=O)NCc4ccccc4)cccc23)cc1OC(C)=O", "result": ">100 µg/mL"}
{"smiles": "CCCOc1ccc(CN2CCn3cc(-c4nccs4)c(=O)c(O)c3C2=O)cc1Cl", "read by": "ELISA", "result": "0.01–0.1 µM"}
{"smiles": "Cc1cn2c(=O)c(O)c(-c3ncc(Cc4ccc(F)c(Cl)c4)s3)nc2s1", "mutations": "E92Q/N155H", "read by": "strand transfer", "result": "1–10 µM"}

A second listing of 4 rows from above:

smiles,mutations,read by,result
CCCOc1ccc(CN2CCn3cc(-c4nccs4)c(=O)c(O)c3C2=O)cc1Cl,-,ELISA,0.01–0.1 µM
COc1ccc(/C=C2\C(=O)N(c3cccc(C)c3)NC2C(F)(F)F)cc1OCc1ccc(F)cc1,-,strand transfer,>100 µM
O=c1c(-c2cc3ccccc3o2)cn2ccn(Cc3cccc(Cl)c3)c(=O)c2c1O,-,ELISA,0.01–0.1 µM
Cn1cc(C(=O)O)c(=O)c2cc(N)c(N3CCN(c4ccccn4)CC3)cc21,-,-,75 µM